Test results published in patent publication US10414808B2 (priority 2012, dated 2019).
Where two headings read alike, the source gives them in different places.

Sequences of proteins named here, by UniProt entry; tags and fusion partners are left off.
UniProt Q99250, whole entry, looked up: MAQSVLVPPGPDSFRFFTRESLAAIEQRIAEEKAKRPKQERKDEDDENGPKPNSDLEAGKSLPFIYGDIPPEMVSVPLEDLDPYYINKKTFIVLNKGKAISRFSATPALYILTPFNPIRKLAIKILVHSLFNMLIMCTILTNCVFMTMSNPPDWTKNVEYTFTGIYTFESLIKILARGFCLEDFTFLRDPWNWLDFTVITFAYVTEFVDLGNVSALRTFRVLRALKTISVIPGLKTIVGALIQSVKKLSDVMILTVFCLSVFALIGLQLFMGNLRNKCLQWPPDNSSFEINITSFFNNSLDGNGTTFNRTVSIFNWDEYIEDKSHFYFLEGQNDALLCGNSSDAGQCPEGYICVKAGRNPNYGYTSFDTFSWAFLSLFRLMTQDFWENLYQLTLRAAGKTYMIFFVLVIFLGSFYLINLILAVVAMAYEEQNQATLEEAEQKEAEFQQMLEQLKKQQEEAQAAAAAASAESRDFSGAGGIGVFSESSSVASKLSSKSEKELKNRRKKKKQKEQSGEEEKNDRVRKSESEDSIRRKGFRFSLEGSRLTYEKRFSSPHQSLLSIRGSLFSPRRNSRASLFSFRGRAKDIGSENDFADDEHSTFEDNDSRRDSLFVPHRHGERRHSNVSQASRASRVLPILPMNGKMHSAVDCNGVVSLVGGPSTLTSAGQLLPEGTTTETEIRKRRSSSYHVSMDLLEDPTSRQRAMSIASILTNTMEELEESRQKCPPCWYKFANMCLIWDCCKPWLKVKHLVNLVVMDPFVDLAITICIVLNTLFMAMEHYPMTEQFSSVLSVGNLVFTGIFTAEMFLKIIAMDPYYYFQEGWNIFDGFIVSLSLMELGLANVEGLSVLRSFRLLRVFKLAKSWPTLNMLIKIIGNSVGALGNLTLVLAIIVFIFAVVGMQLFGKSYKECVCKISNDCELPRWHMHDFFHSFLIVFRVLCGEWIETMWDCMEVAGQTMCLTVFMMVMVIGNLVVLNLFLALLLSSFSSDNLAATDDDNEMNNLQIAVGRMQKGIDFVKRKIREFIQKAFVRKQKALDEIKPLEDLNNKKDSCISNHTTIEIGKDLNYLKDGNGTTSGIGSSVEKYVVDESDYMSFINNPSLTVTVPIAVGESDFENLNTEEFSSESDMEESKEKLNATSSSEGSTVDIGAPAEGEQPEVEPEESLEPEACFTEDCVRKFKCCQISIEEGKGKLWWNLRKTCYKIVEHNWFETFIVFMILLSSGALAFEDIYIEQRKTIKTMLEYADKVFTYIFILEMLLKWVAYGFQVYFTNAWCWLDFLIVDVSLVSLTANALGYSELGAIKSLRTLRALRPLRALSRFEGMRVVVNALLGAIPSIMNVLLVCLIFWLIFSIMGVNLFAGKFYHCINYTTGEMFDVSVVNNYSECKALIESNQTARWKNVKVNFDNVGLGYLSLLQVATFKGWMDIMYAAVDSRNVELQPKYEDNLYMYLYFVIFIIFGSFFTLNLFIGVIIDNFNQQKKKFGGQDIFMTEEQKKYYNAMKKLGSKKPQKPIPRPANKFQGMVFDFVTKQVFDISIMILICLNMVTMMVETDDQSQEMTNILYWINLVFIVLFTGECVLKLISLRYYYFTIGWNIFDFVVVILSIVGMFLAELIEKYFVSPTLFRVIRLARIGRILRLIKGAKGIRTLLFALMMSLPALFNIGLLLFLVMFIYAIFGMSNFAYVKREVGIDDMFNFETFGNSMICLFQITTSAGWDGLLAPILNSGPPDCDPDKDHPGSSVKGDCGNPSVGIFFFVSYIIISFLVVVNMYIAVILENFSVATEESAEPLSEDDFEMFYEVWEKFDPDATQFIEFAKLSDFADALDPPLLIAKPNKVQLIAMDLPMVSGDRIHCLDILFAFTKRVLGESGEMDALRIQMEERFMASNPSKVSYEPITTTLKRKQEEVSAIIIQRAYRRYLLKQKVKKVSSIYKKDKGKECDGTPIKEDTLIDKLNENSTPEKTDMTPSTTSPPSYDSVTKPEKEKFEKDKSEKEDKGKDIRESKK
UniProt Q15858, whole entry W1161R, looked up: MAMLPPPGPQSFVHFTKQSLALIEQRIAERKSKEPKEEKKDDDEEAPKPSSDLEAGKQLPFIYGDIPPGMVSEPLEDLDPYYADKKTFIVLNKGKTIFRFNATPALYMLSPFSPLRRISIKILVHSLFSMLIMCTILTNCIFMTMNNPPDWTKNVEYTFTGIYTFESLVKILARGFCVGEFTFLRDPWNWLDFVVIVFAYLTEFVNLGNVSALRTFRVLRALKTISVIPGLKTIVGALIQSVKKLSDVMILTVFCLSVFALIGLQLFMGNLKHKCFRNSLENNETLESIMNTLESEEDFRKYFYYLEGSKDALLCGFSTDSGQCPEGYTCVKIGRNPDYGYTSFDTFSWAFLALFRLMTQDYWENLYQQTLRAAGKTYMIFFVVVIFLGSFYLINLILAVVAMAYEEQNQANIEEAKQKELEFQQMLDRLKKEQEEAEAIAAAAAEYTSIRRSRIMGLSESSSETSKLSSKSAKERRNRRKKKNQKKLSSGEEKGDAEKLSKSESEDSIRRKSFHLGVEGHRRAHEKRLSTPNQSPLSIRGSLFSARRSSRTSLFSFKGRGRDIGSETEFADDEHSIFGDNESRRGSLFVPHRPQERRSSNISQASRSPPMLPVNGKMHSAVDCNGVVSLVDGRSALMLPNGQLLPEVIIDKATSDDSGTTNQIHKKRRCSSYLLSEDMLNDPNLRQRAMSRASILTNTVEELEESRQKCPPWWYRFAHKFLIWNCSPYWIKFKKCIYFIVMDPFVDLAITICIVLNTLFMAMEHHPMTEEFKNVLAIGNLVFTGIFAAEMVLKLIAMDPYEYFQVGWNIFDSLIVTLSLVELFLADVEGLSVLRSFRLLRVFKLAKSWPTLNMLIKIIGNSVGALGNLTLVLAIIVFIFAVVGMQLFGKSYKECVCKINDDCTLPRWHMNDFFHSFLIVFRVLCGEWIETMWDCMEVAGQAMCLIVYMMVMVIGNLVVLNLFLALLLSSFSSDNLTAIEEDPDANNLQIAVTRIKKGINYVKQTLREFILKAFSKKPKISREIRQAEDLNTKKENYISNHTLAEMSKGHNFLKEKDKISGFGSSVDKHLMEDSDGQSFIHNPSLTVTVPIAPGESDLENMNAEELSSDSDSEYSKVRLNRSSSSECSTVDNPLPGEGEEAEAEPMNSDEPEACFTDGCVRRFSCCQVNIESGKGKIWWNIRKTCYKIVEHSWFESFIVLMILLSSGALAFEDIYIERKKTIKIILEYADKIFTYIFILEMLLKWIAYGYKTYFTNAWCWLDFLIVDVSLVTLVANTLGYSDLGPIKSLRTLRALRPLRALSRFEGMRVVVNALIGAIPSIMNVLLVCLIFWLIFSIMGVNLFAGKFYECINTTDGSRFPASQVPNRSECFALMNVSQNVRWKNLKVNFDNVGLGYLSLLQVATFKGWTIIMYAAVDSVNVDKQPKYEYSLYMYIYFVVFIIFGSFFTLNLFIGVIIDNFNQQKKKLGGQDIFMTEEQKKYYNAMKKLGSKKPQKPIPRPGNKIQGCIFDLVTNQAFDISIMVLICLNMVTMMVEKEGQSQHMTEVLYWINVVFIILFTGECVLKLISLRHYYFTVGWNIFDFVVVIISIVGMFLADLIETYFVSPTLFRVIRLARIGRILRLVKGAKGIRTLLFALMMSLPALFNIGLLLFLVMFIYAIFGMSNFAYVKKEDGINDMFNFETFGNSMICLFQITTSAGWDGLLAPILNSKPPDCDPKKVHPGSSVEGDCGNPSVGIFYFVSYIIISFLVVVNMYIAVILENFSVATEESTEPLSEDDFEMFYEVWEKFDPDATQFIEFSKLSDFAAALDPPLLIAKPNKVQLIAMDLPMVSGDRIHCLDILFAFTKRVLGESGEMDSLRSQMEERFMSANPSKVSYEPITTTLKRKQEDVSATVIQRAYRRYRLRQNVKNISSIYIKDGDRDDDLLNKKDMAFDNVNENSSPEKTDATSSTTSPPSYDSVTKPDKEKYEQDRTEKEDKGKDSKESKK

How the values were obtained:
Nav1.2 [1] = target: T1, Nav1.2 (Homo sapiens, UniProt Q99250); experiment: IC50 (Nav1.2) µM; conditions: read-out: IC50 (Nav1.2) µM
Nav1.7 = Nav1.7 (Homo sapiens, UniProt Q15858, W1161R); experiment: IC50 (Nav1.7) µM; conditions: read-out: IC50 (Nav1.7) µM
Nav1.2 [2] = target: T1, Nav1.2; experiment: IC50 (Nav1.2) µM; conditions: read-out: IC50 (Nav1.2) µM; remark: listed apart in the source

SMILES | IC50 (Nav1.2 [1]) | IC50 (Nav1.7) | IC50 (Nav1.2 [2])
CC[C@H](C)[C@H](NC(=O)[C@H](CO)NC(=O)[C@H](Cc1c[nH]c2ccccc12)NC(=O)[C@H](CCCCN)NC(=O)[C@@H]1CSSC[C@@H]2NC(=O)[C@H](CCC(N)=O)NC(=O)[C@H](CC(=O)O)NC(=O)[C@H](CC(N)=O)NC(=O)[C@H](CO)NC(=O)[C@@H]3CCCN3C(=O)[C@H](CC(N)=O)NC(=O)[C@@H]3CSSC[C@H](NC(=O)[C@H](C(C)C)NC(=O)[C@H](CC(C)C)NC(=O)[C@H](CCCCN)NC(=O)[C@H](CO)NC(=O)[C@H](CO)NC(=O)[C@H](CCCCN)NC(=O)[C@H](CSSC[C@H](NC(=O)[C@H](CCC(=O)O)NC(=O)[C@@H]4CCCN4C(=O)CN)C(=O)N[C@@H](CC(C)C)C(=O)N[C@@H](CCC(=O)O)C(=O)N[C@@H]([C@@H](C)CC)C(=O)N[C@@H](Cc4ccccc4)C(=O)N[C@@H](CCCCN)C(=O)N[C@@H](C)C(=O)N3)NC2=O)C(=O)N[C@@H](CO)C(=O)N[C@@H](CCCNC(=N)N)C(=O)N[C@@H](CCCCN)C(=O)N[C@@H]([C@@H](C)O)C(=O)N[C@@H](CCCNC(=N)N)C(=O)N[C@@H](Cc2c[nH]c3ccccc23)C(=O)N1)C(=O)NCC(=O)N[C@@H](CCCCN)C(=O)O | 0.04 µM | 0.01 µM | 
CC[C@H](C)[C@H](NC(=O)[C@H](CCC(N)=O)NC(=O)[C@H](Cc1ccc(O)cc1)NC(=O)[C@H](CCCCN)NC(=O)[C@@H]1CSSC[C@@H]2NC(=O)[C@H](CCC(N)=O)NC(=O)[C@H](CC(=O)O)NC(=O)[C@H](CC(N)=O)NC(=O)[C@H](CO)NC(=O)[C@@H]3CCCN3C(=O)[C@H](CC(N)=O)NC(=O)[C@@H]3CSSC[C@H](NC(=O)[C@H](C(C)C)NC(=O)[C@H](CC(C)C)NC(=O)[C@H](CCCCN)NC(=O)[C@H](CO)NC(=O)[C@H](CO)NC(=O)[C@H](CCCCN)NC(=O)[C@H](CSSC[C@H](NC(=O)[C@H](CCC(=O)O)NC(=O)[C@@H]4CCCN4C(=O)CN)C(=O)N[C@@H](CC(C)C)C(=O)N[C@@H](CCC(=O)O)C(=O)N[C@@H]([C@@H](C)CC)C(=O)N[C@@H](Cc4ccccc4)C(=O)N[C@@H](CCCCN)C(=O)N[C@@H](Cc4c[nH]c5ccccc45)C(=O)N3)NC2=O)C(=O)N[C@@H](CO)C(=O)N[C@@H](CCCNC(=N)N)C(=O)N[C@@H](CCCCN)C(=O)N[C@@H]([C@@H](C)O)C(=O)N[C@@H](CCCNC(=N)N)C(=O)N[C@@H](Cc2c[nH]c3ccccc23)C(=O)N1)C(=O)NCC(=O)N[C@@H](CCCCN)C(=O)O | 0.01 µM | 0.05 µM | 
CC[C@H](C)[C@H](NC(=O)[C@H](CCC(N)=O)NC(=O)[C@H](Cc1ccc(O)cc1)NC(=O)[C@H](CCCCN)NC(=O)[C@@H]1CSSC[C@@H]2NC(=O)[C@H](CCC(N)=O)NC(=O)[C@H](CC(=O)O)NC(=O)[C@H](CC(N)=O)NC(=O)[C@H](CO)NC(=O)[C@@H]3CCCN3C(=O)[C@H](CC(N)=O)NC(=O)[C@@H]3CSSC[C@H](NC(=O)[C@H](C(C)C)NC(=O)[C@H](CC(C)C)NC(=O)[C@H](CCCCN)NC(=O)[C@H](CO)NC(=O)[C@H](CO)NC(=O)[C@H](CCCCN)NC(=O)[C@H](CSSC[C@H](NC(=O)[C@H](CCC(=O)O)NC(=O)[C@@H]4CCCN4C(=O)CN)C(=O)N[C@@H](CC(C)C)C(=O)N[C@@H](CCC(=O)O)C(=O)N[C@@H]([C@@H](C)CC)C(=O)N[C@@H](Cc4ccccc4)C(=O)N[C@@H](CCCCN)C(=O)N[C@@H](C)C(=O)N3)NC2=O)C(=O)N[C@@H](CO)C(=O)N[C@@H](CCCNC(=N)N)C(=O)N[C@@H](CCCCN)C(=O)N[C@@H](C)C(=O)N[C@@H](CCCNC(=N)N)C(=O)N[C@@H](Cc2c[nH]c3ccccc23)C(=O)N1)C(=O)NCC(=O)N[C@@H](CCCCN)C(=O)O | 0.1 µM |  | 
CC[C@H](C)[C@H](NC(=O)[C@H](CO)NC(=O)[C@H](Cc1c[nH]c2ccccc12)NC(=O)[C@H](CCCCN)NC(=O)[C@@H]1CSSC[C@@H]2NC(=O)[C@H](CCC(N)=O)NC(=O)[C@H](CC(=O)O)NC(=O)[C@H](CC(N)=O)NC(=O)[C@H](CO)NC(=O)[C@@H]3CCCN3C(=O)[C@H](CC(N)=O)NC(=O)[C@@H]3CSSC[C@H](NC(=O)[C@H](C(C)C)NC(=O)[C@H](CC(C)C)NC(=O)[C@H](CCCCN)NC(=O)[C@H](CO)NC(=O)[C@H](CO)NC(=O)[C@H](CCCCN)NC(=O)[C@H](CSSC[C@H](NC(=O)[C@H](CC(N)=O)NC(=O)[C@@H]4CCCN4C(=O)CN)C(=O)N[C@@H](CC(C)C)C(=O)N[C@@H](CCCNC(=N)N)C(=O)N[C@@H]([C@@H](C)CC)C(=O)N[C@@H](Cc4ccccc4)C(=O)N[C@@H](CCCCN)C(=O)N[C@@H](C)C(=O)N3)NC2=O)C(=O)N[C@@H](CO)C(=O)N[C@@H](CCCNC(=N)N)C(=O)N[C@@H](CCCCN)C(=O)N[C@@H]([C@@H](C)O)C(=O)N[C@@H](CCCNC(=N)N)C(=O)N[C@@H](Cc2c[nH]c3ccccc23)C(=O)N1)C(=O)NCC(=O)N[C@@H](CCCCN)C(=O)O |  | 0.01 µM | 0.02 µM
CC[C@H](C)[C@@H]1NC(=O)[C@H](C)NC(=O)[C@H](CC(C)C)NC(=O)[C@@H](NC(=O)[C@H](CCC(=O)O)NC(=O)[C@@H]2CCCN2C(=O)CN)CSSC[C@@H]2NC(=O)[C@@H]3CSSC[C@@H](C(=O)N[C@@H](CCCCN)C(=O)N[C@@H](Cc4ccc(O)cc4)C(=O)N[C@@H](CCC(N)=O)C(=O)N[C@H](C(=O)NCC(=O)N[C@@H](CCCCN)C(=O)O)[C@@H](C)CC)NC(=O)[C@H](Cc4c[nH]c5ccccc45)NC(=O)[C@H](CCCNC(=N)N)NC(=O)[C@H]([C@@H](C)O)NC(=O)[C@H](CCCCN)NC(=O)[C@H](CCCNC(=N)N)NC(=O)[C@H](CO)NC(=O)[C@H](CSSC[C@H](NC(=O)[C@H](C)NC(=O)[C@H](CCCCN)NC(=O)[C@H](Cc4ccccc4)NC1=O)C(=O)N[C@@H](CC(N)=O)C(=O)N1CCC[C@H]1C(=O)N[C@@H](CO)C(=O)N[C@@H](CC(N)=O)C(=O)N[C@@H](CC(=O)O)C(=O)N[C@@H](CCC(N)=O)C(=O)N3)NC(=O)[C@H](C(C)C)NC(=O)[C@H](CC(C)C)NC(=O)[C@H](CCCCN)NC(=O)[C@H](CO)NC(=O)[C@H](CO)NC(=O)[C@H](CCCCN)NC2=O | 0.03 µM | 0.02 µM | 
CC[C@H](C)[C@@H]1NC(=O)[C@H](CCCNC(=N)N)NC(=O)[C@H](CC(C)C)NC(=O)[C@@H](NC(=O)[C@H](CCC(=O)O)NC(=O)[C@@H]2CCCN2C(=O)CN)CSSC[C@@H]2NC(=O)[C@@H]3CSSC[C@@H](C(=O)N[C@@H](CCCCN)C(=O)N[C@@H](Cc4ccc(O)cc4)C(=O)N[C@@H](CCC(N)=O)C(=O)N[C@H](C(=O)N[C@H](C(=O)N[C@@H](CCCCN)C(=O)O)[C@@H](C)CC)[C@@H](C)CC)NC(=O)[C@H](Cc4c[nH]c5ccccc45)NC(=O)[C@H](CCCNC(=N)N)NC(=O)[C@H]([C@@H](C)O)NC(=O)[C@H](CCCCN)NC(=O)[C@H](CCCNC(=N)N)NC(=O)[C@H](CO)NC(=O)[C@H](CSSC[C@H](NC(=O)[C@H](C)NC(=O)[C@H](CCCCN)NC(=O)[C@H](Cc4ccccc4)NC1=O)C(=O)N[C@@H](CC(N)=O)C(=O)N1CCC[C@H]1C(=O)N[C@@H](CO)C(=O)N[C@@H](CC(N)=O)C(=O)N[C@@H](CC(=O)O)C(=O)N[C@@H](CCC(N)=O)C(=O)N3)NC(=O)[C@H](C(C)C)NC(=O)[C@H](CC(C)C)NC(=O)[C@H](CCCCN)NC(=O)[C@H](CO)NC(=O)[C@H](CO)NC(=O)[C@H](CCCCN)NC2=O | 0.05 µM | 0.01 µM | 
CC[C@H](C)[C@H](NC(=O)[C@H](CCC(N)=O)NC(=O)[C@H](Cc1ccc(O)cc1)NC(=O)[C@H](CCCCN)NC(=O)[C@@H]1CSSC[C@@H]2NC(=O)[C@H](CCC(N)=O)NC(=O)[C@H](CC(=O)O)NC(=O)[C@H](CC(N)=O)NC(=O)[C@H](CO)NC(=O)[C@@H]3CCCN3C(=O)[C@H](CC(N)=O)NC(=O)[C@@H]3CSSC[C@H](NC(=O)[C@H](C(C)C)NC(=O)[C@H](CC(C)C)NC(=O)[C@H](CCCCN)NC(=O)[C@H](CO)NC(=O)[C@H](CO)NC(=O)[C@H](CCCCN)NC(=O)[C@H](CSSC[C@H](NC(=O)[C@H](CC(N)=O)NC(=O)[C@@H]4CCCN4C(=O)CN)C(=O)N[C@@H](CC(C)C)C(=O)N[C@@H](CCC(=O)O)C(=O)N[C@@H]([C@@H](C)CC)C(=O)N[C@@H](Cc4ccccc4)C(=O)N[C@@H](CCCCN)C(=O)N[C@@H](C)C(=O)N3)NC2=O)C(=O)N[C@@H](CO)C(=O)N[C@@H](CCCNC(=N)N)C(=O)N[C@@H](CCCCN)C(=O)N[C@@H]([C@@H](C)O)C(=O)N[C@@H](CCCNC(=N)N)C(=O)N[C@@H](Cc2c[nH]c3ccccc23)C(=O)N1)C(=O)NCC(=O)N[C@@H](CCCCN)C(=O)O | 0.03 µM | 0.02 µM | 
CC[C@H](C)[C@H](NC(=O)[C@H](CCC(N)=O)NC(=O)[C@H](Cc1c[nH]c2ccccc12)NC(=O)[C@H](CCCCN)NC(=O)[C@@H]1CSSC[C@@H]2NC(=O)[C@H](CCC(N)=O)NC(=O)[C@H](CC(=O)O)NC(=O)[C@H](CC(N)=O)NC(=O)[C@H](CO)NC(=O)[C@@H]3CCCN3C(=O)[C@H](CC(N)=O)NC(=O)[C@@H]3CSSC[C@H](NC(=O)[C@H](C(C)C)NC(=O)[C@H](CC(C)C)NC(=O)[C@H](CCCCN)NC(=O)[C@H](CO)NC(=O)[C@H](CO)NC(=O)[C@H](CCCCN)NC(=O)[C@H](CSSC[C@H](NC(=O)[C@H](CCC(=O)O)NC(=O)[C@@H]4CCCN4C(=O)CN)C(=O)N[C@@H](CC(C)C)C(=O)N[C@@H](CCCNC(=N)N)C(=O)N[C@@H]([C@@H](C)CC)C(=O)N[C@@H](Cc4ccccc4)C(=O)N[C@@H](CCCCN)C(=O)N[C@@H](C)C(=O)N3)NC2=O)C(=O)N[C@@H](CO)C(=O)N[C@@H](CCCCN)C(=O)N[C@@H](CCCCN)C(=O)N[C@@H]([C@@H](C)O)C(=O)N[C@@H](CCCNC(=N)N)C(=O)N[C@@H](Cc2c[nH]c3ccccc23)C(=O)N1)C(=O)NCC(=O)N[C@@H](CCCCN)C(=O)O | 0.02 µM | 0.01 µM | 
